Assay results published in patent publication US11578091B2, “Process for the manufacture of maltosyl-isomaltooligosaccharides (MIMO)” (ISOThrive LLC, priority 2017, dated 2023).

System: extracellular hydrolytic enzyme
Assay: Hydrolysis of MIMO by DP during fermentation with NRRL B-742 (HPAEC-PAD)
Design: species or system Leuconostoc citreum NRRL B-742
Details: for susceptibility to hydrolysis relative to DP 5: relative to quantity at 17 hours, trial #5; for susceptibility to hydrolysis during fermentation (in words): fermentation broth, L. citreum NRRL B-742, pH 5.5, 27° C.

| Structure (SMILES) | susceptibility to hydrolysis relative to DP 5 (at 24 hours of fermentation) | susceptibility to hydrolysis relative to DP 5 (at 42 hours of fermentation) | susceptibility to hydrolysis during fermentation (in words) |
| --- | --- | --- | --- |
| OC[C@H]1O[C@H](OC[C@H]2O[C@H](O[C@H]3[C@H](O)[C@@H](O)C(O)O[C@@H]3CO)[C@H](O)[C@@H](O)[C@@H]2O)[C@H](O)[C@@H](O)[C@@H]1O (stereo partly shown) [DP 3, panose] | 4.89 | 160.6 | destroyed relatively quickly |
| OC[C@H]1O[C@H](OC[C@H]2O[C@H](OC[C@H]3O[C@H](OC[C@H]4O[C@H](O[C@H]5[C@H](O)[C@@H](O)[C@@H](O)O[C@@H]5CO)[C@H](O)[C@@H](O)[C@@H]4O)[C@H](O)[C@@H](O)[C@@H]3O)[C@H](O)[C@@H](O)[C@@H]2O)[C@H](O)[C@@H](O)[C@@H]1O [DP 5] |  |  | little or no change |
